According to US8790898B2 (priority 2008, dated 2014):

Legend:
[1] = tested on: CBD1 peptide and CBD1- and CBM-based peptides; set-up: species or system BALB/c mice; details: mouse, in vivo, sc
HIV-1 BZ 167 = type: cell-based

## K-Q-M-N-M-W-Q-V-V-G-KA-M-Y-A-K-K-I-W-N-N-M-T-W-M-Q-W-D-K (KQMNMWQVVGKAMYAKKIWNNMTWMQWDK; K30K - chimeric peptide T cell epitope from HIV-1 gp 120 421-438 fused to a caveolin-1 binding domain from HIV-1 gp41 protein)
[1]
  ELISA titer against C17K: 2.02 ± 0.41
  IgG2/IgG1 ratio: 6.66
HIV-1 BZ 167
  % inhibition of HIV-1 at 200-fold dilution: 61%
  Neutralizing activity ID50: 200-fold
